The values that follow come from ChEMBL document CHEMBL5620356, “Sulfur-fluoride exchange (SuFEx)-enabled lead discovery of AChE inhibitors by fragment linking strategies” (Eur J Med Chem, 2023).

Protein sequences, listed by entry. Tags and fused reporters are not part of them. Lines headed by an entry give the natural chain unless they say otherwise; changes in a name come on top.
UniProt O42275: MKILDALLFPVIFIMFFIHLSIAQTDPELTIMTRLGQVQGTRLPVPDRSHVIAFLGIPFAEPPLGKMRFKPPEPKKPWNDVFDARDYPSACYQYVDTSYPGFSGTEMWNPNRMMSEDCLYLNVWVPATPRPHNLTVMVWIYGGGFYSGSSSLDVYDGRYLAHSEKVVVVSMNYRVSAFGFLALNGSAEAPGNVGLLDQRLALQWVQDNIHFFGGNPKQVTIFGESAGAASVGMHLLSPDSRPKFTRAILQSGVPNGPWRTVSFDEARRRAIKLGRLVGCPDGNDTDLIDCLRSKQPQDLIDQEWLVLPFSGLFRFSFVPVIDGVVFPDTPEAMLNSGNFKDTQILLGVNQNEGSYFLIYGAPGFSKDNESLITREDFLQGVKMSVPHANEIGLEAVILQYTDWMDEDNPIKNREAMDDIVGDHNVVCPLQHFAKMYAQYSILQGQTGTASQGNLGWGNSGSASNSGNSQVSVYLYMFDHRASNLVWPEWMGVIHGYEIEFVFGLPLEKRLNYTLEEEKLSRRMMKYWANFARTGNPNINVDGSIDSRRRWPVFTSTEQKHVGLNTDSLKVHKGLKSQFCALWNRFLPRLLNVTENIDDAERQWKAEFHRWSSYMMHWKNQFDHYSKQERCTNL

In general, inhibition refers to the percentage by which the read-out fell short of the control. A high value points to strong suppression.

SMILES strings stand for the structures.

The assay addresses Acetylcholinesterase (Electrophorus electricus) (UniProt O42275). Put plainly: Inhibition of electric eel AChE using acetylthiocholine iodide as substrate at 20 uM preincubated for 20 mins followed by substrate addition and measured after 20 mins by DTNB reagent based Ellman's method relative to control. To be noted: time 40.0 min. In general terms: Ellman's reagent forms a yellow product with free thiols.

Regarding `O=C1N[C@@H]2C[C@@H](S(=O)(=O)F)[C@@H]2c2ccccc21`, the inhibition is less than 50%.
